# Measurements reported in PubChem BioAssay AID435030 (The Scripps Research Institute Molecular Screening Center, 2010).
# The list shows a part of the results, in another mix than the full data. Activity calls are given as the source filed them. Rule as the data show it: active = inhibition above about 12%; inactive = the rest.
# Assay: reduced growth of AddAB-expressing E. coli cells – absorbance, AddAB inhibitor project, primary screen (AID 435030);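 also: 0% = vehicle wells of infected cells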
# Conditions: E. coli expressing H. pylori AddAB, at 11.9 µM, active compounds read high
row,Structure (SMILES),inhibition
1,CC(C)(C)C(=O)NC(Sc1ncccn1)C(Cl)(Cl)Cl (stereo unspecified),inactive: -1.79%
2,CN(CCCl)Cc1cc(Cl)c(NC2=NCCN2)c(Cl)c1,inactive: -1.9%
3,CCOP(=O)(Nc1ccc(C)cn1)OCC,inactive: -1.13%
4,O=P1(Nc2ccccn2)COc2ccccc2OC1,inactive: 3.61%
5,CCC1=CC2Cc3nc4ccc(Cl)cc4c(N)c3C(C1)C2 (stereo unspecified),inactive: 5.01%
6,CCOP(=O)(NC(=NC(C)c1ccccc1)NC(C)c1ccccc1)OCC (stereo unspecified),inactive: -0.72%
7,O=[As](O)(c1ccccc1Br)c1ccccc1Br,inactive: -0.58%
8,CC1(CBr)Cn2c(nc3ccccc3c2=O)S1 (stereo unspecified),inactive: 3.11%
9,CC(C)/C=N\N=C(\N)N[N+](=O)[O-],inactive: -1.1%
10,CN(C(=O)Cc1ccc(Cl)c(Cl)c1)[C@@H]1CCCC[C@H]1N1CCCC1,inactive: 1.42%
11,COc1ccccc1CNC(=O)COC(=O)C(O)(c1ccccc1)c1ccccc1,inactive: -0.17%
12,O=C(/C=C/c1ccccc1)OC1CN2CCC1CC2 (stereo unspecified),inactive: -0.77%
13,CN(C)C1(CNC(=O)c2ccc(S(C)(=O)=O)cc2)CCCCC1,inactive: 3.39%
14,Cc1nn(-c2ccccc2)c2c1P(=O)(N1CCOCC1)N(C)C(c1ccccc1)=N2 (stereo unspecified),inactive: 0.94%
15,CC1CCC(C(C)C)C(OP(=O)(Nc2ccccn2)c2ccccc2)C1 (stereo unspecified),inactive: 3.77%
16,Cc1ccc(C(=O)OC2CN3CCC2CC3)cc1 (stereo unspecified),inactive: 3.5%
17,O=P1(Nc2ccc(Br)cn2)COc2ccccc2OC1,inactive: -0.25%
18,NS(=O)(=O)c1cccc(NC(=O)COC(=O)C(O)(c2ccccc2)c2ccccc2)c1,inactive: 1.61%
19,Cc1ccc(OCC(=O)OC2CN3CCC2CC3)cc1 (stereo unspecified),inactive: 4.28%
20,O=[As](O)(c1cccs1)c1cccs1,inactive: 0.74%
21,Nc1cccc([As](=O)(O)c2ccccc2)c1,inactive: 1.69%
22,O=P1(Nc2ncccn2)COc2ccccc2OC1,inactive: -0.25%
23,Nc1ccccc1[As](=O)(O)c1ccccc1,inactive: 0.51%

row,Structure (SMILES),inhibition
1,O=C(O)COc1ccc([As](=O)(O)O)cc1[N+](=O)[O-],inactive: -1.89%
2,CS(=O)(=O)c1cc([N+](=O)[O-])c2no[n+]([O-])c2c1,inactive: 1.97%
3,CCOP1(=S)c2c(C)nn(CCC#N)c2N=C(c2ccccc2F)N1C (stereo unspecified),inactive: 0.17%
4,O=P(Nc1nccs1)(c1ccccc1)c1nc2ccccc2s1 (stereo unspecified),active: 82%
5,O=P(Nc1nccs1)(Oc1ccccc1)Oc1ccccc1,inactive: -0.91%
6,CN(C)C(=O)c1cc([N+](=O)[O-])cc2c1-c1c(cc([N+](=O)[O-])cc1[N+](=O)[O-])C2=O,inactive: 2.92%
7,O=[N+]([O-])c1ccc2c(c1)nnn2O,inactive: 0.94%
8,CN(C(=O)Cc1ccc(Cl)c(Cl)c1)[C@H]1CC[C@@]2(CCCO2)C[C@@H]1N1CCCC1,inactive: -1.09%
9,N#CCCN(C(=O)COC(=O)C(O)(c1ccccc1)c1ccccc1)c1ccc(F)cc1,inactive: -1.54%
10,CCOP1(=S)c2c(C)nn(CCC#N)c2N=C(c2ccc(F)cc2)N1C (stereo unspecified),inactive: -0.93%
11,CN(C(=O)Cc1ccccc1)[C@@H]1CC[C@]2(CCCO2)C[C@H]1N1CCCC1,inactive: 2.43%
12,NC(=O)Nc1ccc([As](=O)(O)O)cc1,inactive: 0.78%
13,O=[As](O)(c1cccc(O)c1)c1cccc(O)c1,inactive: 1.73%
14,Cc1cccc(OCC(=O)OC2CN3CCC2CC3)c1 (stereo unspecified),inactive: 3.97%
15,COc1cc(C(=O)NCC2(N3CCOCC3)CCCCC2)cc(Cl)c1OC(C)C,inactive: -2.56%
16,O=[As](O)(O)c1cccnc1,inactive: -0.51%
17,CS(=O)(=O)c1ccc(Cl)c(NC(=O)COC(=O)C(O)(c2ccccc2)c2ccccc2)c1,inactive: 0.43%
18,O=C(OC1CN2CCC1CC2)c1ccc(Cl)cc1 (stereo unspecified),inactive: 0.77%
19,COc1cc(C2NCCC3(OCCO3)C2(C)C)cc(OC)c1OC (stereo unspecified),inactive: 1.29%
20,CCOP(=O)(Nc1cccc2ccccc12)OCC,inactive: 1.24%
21,CCCOP(=S)(Nc1nc(N)cc(=O)[nH]1)OCCC,inactive: -2.23%
22,Cc1ccc(NCCc2c([N+](=O)[O-])cc([N+](=O)[O-])cc2[N+](=O)[O-])cc1,inactive: -1.91%
23,Nc1cccc2c([As](=O)(O)O)cccc12,inactive: -0.48%
